PubChem BioAssay AID624099, ICCB-Longwood – 2012

Purpose: 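Host factors E2 relies on to silence an HPV18 LCR reporter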 (primary screen)
System: human C33A cervical carcinoma cells (HPV-negative) stably expressing BPV1 E2 and an HPV18 LCR luciferase reporter
Knock-down reagent: siRNA pool against human genes, 40 nM
Duration: 72 h
Measured: 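Per-well luciferase luminescence, z-scored on each plate against the plate mean and SD with control wells left out, then averaged across three replicate plates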
Reading the numbers: mean z-score and z-score: higher = stronger reporter signal, weaker E2 silencing
Hit rule: 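Mean z ≥ 2 together with z ≥ 2 in two or more of the three replicates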
In all, the deposit lists about 21,000 reagents; shown is a part drawn at random. Of all reagents, 497 (2.4%) are marked active. 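Higher z means weaker E2 silencing; only reporter increases were scored, and knock-downs that hurt cell survival may mask genuine repressor factors.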

The first 2 records, ahead of the listing:
no.	gene	mean z-score	z-score, replicate A	z-score, replicate B	z-score, replicate C	activity call
1	MRPL53	0.42	0.52	0.55	0.17	inactive
2	RPS27A	-1.97	-1.95	-2.04	-1.92	inactive

Main list, from the start:
no.	gene	mean z-score	z-score, replicate A	z-score, replicate B	z-score, replicate C	activity call
1	MRPL53	0.42	0.52	0.55	0.17	inactive
2	RPS27A	-1.97	-1.95	-2.04	-1.92	inactive
3	ACYP2	1.98	2.34	1.95	1.65	inactive
4	DRAXIN	-0.16	-0.51	-0.16	0.19	inactive
5	LOC391498 (retired record)	0.83	0.92	1.04	0.53	inactive
6	LOC390533 (retired record)	-0.38	-0.53	-0.34	-0.28	inactive
7	BTG4	1.18	1.33	0.91	1.31	inactive
8	FTSJ3	-0.77	-0.32	-0.82	-1.18	inactive
9	RNF149	-1.48	-1.73	-1.29	-1.42	inactive
10	SPHKAP	-0.59	-0.96	-0.4	-0.4	inactive
11	CCDC78	-0.31	-0.17	-0.78	0.01	inactive
12	GJB1	-0.23	-0.58	0.12	-0.25	inactive
13	XRN2	-0.06	-0.21	-0.09	0.13	inactive
14	TRARG1	1.51	1.54	1.43	1.56	inactive
15	AGT	0.1	-0.01	0.26	0.06	inactive
16	SBSPON	0.27	0.06	0.53	0.21	inactive
17	RHAG	-0.75	-0.78	-0.87	-0.61	inactive
18	FGD3	-0.11	-0.22	-0.02	-0.09	inactive
19	CCDC138	1.31	0.82	1.66	1.46	inactive
20	ST7L	0.16	0.22	0.06	0.22	inactive
21	LONRF3	-0.48	-0.52	-0.39	-0.52	inactive
22	PXDNL	-0.66	-0.81	-0.5	-0.66	inactive
23	CFAP52	0.06	0.64	-0.59	0.13	inactive
